For assay [1], the system named is HBV N236T (Adefovir dipivoxil).

Each structure is given as a SMILES string.

As for `CCCCCCCCCCCCCCCCOCCCOP(=O)(O)CC/C=C\Cn1cnc2c(N)ncnc21` [HDP-PPen-A], in the assay on HBV M204V (3TC), the “activity against 3TC-resistant HBV M204V, in words” value was “fully active”. Also, in the assay on HBV M204I (3TC), the “activity against 3TC-resistant HBV M204I, in words” value is reported as “fully active”. Further, the “activity against 3TC-resistant HBV L180M, in words” value in the assay with HBV L180M (3TC) was “fully active”. Also, the “activity against 3TC-resistant HBV double mutant L180M/M204V, in words” value with HBV L180M/M204V (3TC) is “fully active”. In assay [1], the “activity against adefovir-resistant HBV N236T, in words” value is reported as “fully active”.

Regarding `CCCCCCCCCCCCCCCCOCCCOP(=O)(O)CC/C=C\Cn1cnc2c(=O)[nH]c(N)nc21` [HDP-PPen-G, (Z)-3-(hexadecyloxy)propyl hydrogen 5-(2-amino-6-oxo-1,6-dihydropurin-9-yl)pent-3-enylphosphonate], the “activity against 3TC-resistant HBV M204V, in words” value in the assay on HBV M204V (3TC) is recorded as “active”. For the same compound, the “activity against 3TC-resistant HBV M204I, in words” value in the assay with HBV M204I (3TC) is given as “active”. For the same compound, the “activity against adefovir-resistant HBV N236T, in words” value in assay [1] is on record as “fully active”.
